Experiment in all cases: cell-based or functional assay
Test [1] addresses HIV-1 Env of isolate MG RM-C-001 (HIV-1).
In test [2] the target is HIV-1 Env of isolate MG RM-C-002 (HIV-1).
Test [3] concerns the target HIV-1 Env of isolate MG RM-C-004 (HIV-1).
Test [4] addresses HIV-1 Env of isolate MG RM-C-005 (HIV-1).
Test [5] deals with HIV-1 Env of isolate MG RM-C-006 (HIV-1).
For test [6], the target named is HIV-1 Env of isolate MG RM-C-007 (HIV-1).
Test [7] deals with HIV-1 Env of isolate MG RM-C-008 (HIV-1).
The target in test [8] is HIV-1 Env of isolate MG RM-C-013 (HIV-1).
Test [9] deals with HIV-1 Env of isolate MG RM-C-010 (HIV-1).
Test [10] concerns the target HIV-1 Env of isolate MG RM-C-012 (HIV-1).

A value given as a limit tells only on which side of the number the result lay.

B1: PGT-145 (antibody, V domains shown)
VH: QVQLVQSGAEVKKPGSSVKVSCKASGNSFSNHDVHWVRQATGQGLEWMGWMSHEGDKTGLAQKFQGRVTITRDSGASTVYMELRGLTADDTAIYYCLTGSKHRLRDYFLYNEYGPNYEEWGDYLATLDVWGHGTAVTVSS
VL: EVVITQSPLFLPVTPGEAASLSCKCSHSLQHSTGANYLAWYLQRPGQTPRLLIHLATHRASGVPDRFSGSGSGTDFTLKISRVESDDVGTYYCMQGLHSPWTFGQGTKVEIK
With B1, the “neutralization IC50” value in test [1] is greater than 50 µg/mL; in [2], 0.008 µg/mL; in test [3], greater than 50 µg/mL; in [4], greater than 50 µg/mL; in [5], 0.01 µg/mL; in test [6], greater than 50 µg/mL. The “neutralization IC50” value in test [7] and in [8] was greater than 50 µg/mL each time.

B2: PGT-142 (antibody, V domains shown)
VH: QVQLVQSGPEVKKPGSSVKVSCKASGNTFSKYDVHWVRQATGQGLEWVGWISHERDKTESAQRFKGRVTFTRDTSATTAYMELRGLTSDDTAIYYCTRGSKHRLRDYVLYDDYGLINYQEWNDYLEFLDVWGHGTAVTVSS
VL: DTVVTQSPLSLPVTPGEAASMSCSSTQSLRHSNGANYLAWYQHKPGQSPRLLIRLGSQRASGVPDRFSGSGSGTHFTLKISRVEAEDAAIYYCMQGLNRPWTFGKGTKLEIK
As for B2, the “neutralization IC50” value was greater than 50 µg/mL in [1]; greater than 50 µg/mL in test [3]; greater than 50 µg/mL in test [6]; greater than 50 µg/mL in test [7]; 0.07 µg/mL in test [9]; greater than 50 µg/mL in test [10]. Besides, the “neutralization IC50” value in test [8] is greater than 50 µg/mL.
